# System: LLC-MK2 monkey kidney epithelial cells
# Assay: cytotoxicity on LLC-MK2 monkey kidney epithelial cells
# Details: SI = CC50/IC50
# Method: The cytotoxicity profiles of the extracts and pure compounds were estimated against LLC-MK2 monkey kidney epithelial cells according to the procedure previously described with some modifications. Cells were cultured under the same conditions as P. falciparum. Cells were distributed in 96-well plates at 20,000 cells per well in 100 μL culture medium, and allowed to attach and become confluent, for 24h. The medium was then removed completely the next day and 100 μL of fresh medium was added to all the wells, followed by 100 μL of crude extract (1000 μg/mL) or pure compounds (200 μg/mL) added in triplicate in row H. A two folds serial dilution was made upward to obtain concentration range of 250 - 3.90 μg/ml (crude extract) or 50 - 0.78 μg/ml (pure compounds), cells at row A serving as control without drug. The plates were incubated for five days at 37°C in 5% CO2 in air. Cells concentration and viability in the presence of extracts or pure compounds were compared with that of control cultures without extracts.
smiles,measurement,setting,value
"COc1cccc2c(=O)c3ccc(O)cc3oc12 [HLT4, 3-hydroxy-5-methoxyxanthone]",Mean SI for W2mef,first SI column of Table 3,0.36 ± 0.00
same,Mean SI for W2mef,second SI column of Table 3 (same head printed),0.36

# — paper PMC3131257, “Hypericum lanceolatum (Hypericaceae) as a potential source of new anti-malarial agents: a bioassay-guided fractionation of the stem bark” (Malaria Journal, 2011)
